Sequences of proteins named here, by UniProt entry; tags and fusion partners are left off. A change or cut given only in a name is not applied to a line headed by its entry.
UniProt O18423: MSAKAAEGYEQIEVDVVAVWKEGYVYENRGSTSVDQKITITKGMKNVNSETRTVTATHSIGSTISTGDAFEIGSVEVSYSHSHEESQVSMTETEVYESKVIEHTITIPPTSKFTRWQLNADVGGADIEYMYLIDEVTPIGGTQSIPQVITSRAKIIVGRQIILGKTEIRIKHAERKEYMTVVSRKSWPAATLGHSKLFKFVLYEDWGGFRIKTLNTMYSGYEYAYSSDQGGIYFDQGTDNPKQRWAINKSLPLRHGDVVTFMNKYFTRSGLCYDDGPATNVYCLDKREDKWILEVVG

According to publication PMC3526787, “Structures of Lysenin Reveal a Shared Evolutionary Origin for Pore-Forming Proteins And Its Mode of Sphingomyelin Recognition” (Structure(London, England:1993), 2012):

Target: lysenin (Eisenia fetida, UniProt O18423)
Assay: X-ray crystal structure
Details: SeMet protein crystals soaked with 50 mM phosphocholine, pH 4.5; site in C-terminal beta-trefoil (K185, S227, Y233, Y282)

For `C[N+](C)(C)CCOP(=O)([O-])O`, the X-ray crystal structure was “the protein was found in complex with a phosphocholine molecule (lysenin:POC)”.
